A mixed list of measured activities; the numbers were collected in NIAID ChemDB.

Shared fields: whole-cell or culture tests; agent: HIV-1; method: syncytia; read-out: inhibition

Percent inhibition refers to the dose given; in toxicity tests it is the harm to the cells. Rows are shuffled and stem from different studies.

NCC1OC(n2cnc3c(N)ncnc32)C(OP(=O)(O)OCC2OC(n3cnc4c(N)ncnc43)C(OP(=O)(O)OCC3OC(n4cnc5c(N)ncnc54)C(O)C3O)C2O)C1O ; strain: IIIB ; cell line: SupT1 + Sup-T1 ; dose: 100 µM ; result: 23.1%
C=C(C)[C@@H]1CC[C@]2(C(=O)NCCCCCCCC(=O)N[C@@H](CC(C)C)[C@@H](O)CC(=O)O)CC[C@]3(C)[C@H](CC[C@@H]4[C@@]5(C)CC[C@H](O)C(C)(C)[C@@H]5CC[C@]43C)[C@@H]12 ; strain: LAI ; cell line: HeLa P4 + HeLa ; changes: GP41-Q39H ; dose: 10 µM ; result: >99%
CC(=O)C1=CC=CN(C(=O)Oc2ccccc2)C1C#N ; strain: IIIB ; cell line: MOLT-3 ; dose: 50 µM ; result: 0%
Nc1ncnc2c1ncn2COCCOP(=O)([O-])O[C@@H]1C[C@@H](COP(=O)([O-])O[C@@H]2C[C@@H](COP(=O)([O-])O[C@@H]3C[C@@H](CO)O[C@H]3n3cnc4c(N)[n+](Cc5ccccc5)cnc43)O[C@H]2n2cnc3c(N)ncnc32)O[C@H]1n1cnc2c(N)ncnc21 ; cell line: SupT1 + Sup-T1 ; dose: 1 µM ; result: 59%
CCCCCCCCCCCCCCCCOCC(COC(=O)CCC(=O)OC1CC(COP(=O)(O)OC2CC(COP(=O)(O)OC3CC(CO)OC3n3cnc4c(N)ncnc43)OC2n2cnc3c(N)ncnc32)OC1n1cnc2c(N)ncnc21)OCCCCCCCCCCCCCCCC ; strain: IIIB ; cell line: SupT1 + Sup-T1 ; dose: 300 µM ; result: 90%
CCCCCCCCCCCCCCCC(=O)NC1C(COP(=O)(O)OC2C(O)C(COP(=O)(O)OC3CC(CO)OC3n3cnc4c(N)ncnc43)OC2n2cnc3c(N)ncnc32)OC(n2cnc3c(N)ncnc32)C1O ; dose: 100 µM ; result: 91%
C[C@H](CCC(=O)NCC(=O)N[C@@H](Cc1cc(I)c(O)cc1I)C(=O)O)[C@H]1CC[C@H]2[C@@H]3[C@H](O)CC4C[C@H](O)CC[C@]4(C)[C@H]3C[C@H](O)[C@]12C ; strain: IIIB ; cell line: H9 ; dose: 100 µg/mL ; result: 40.9%
CC(C)COC(=O)N1c2ccc3ccccc3c2C=CC1C#N ; strain: IIIB ; cell line: MOLT-3 ; dose: 50 µM ; result: 37.5%
CCCCCCCCCCCCCCCC(=O)NCC1CC(OP(=O)(O)OCC2OC(n3cnc4c(N)ncnc43)C(OP(=O)(O)OCC3OC(n4cnc5c(N)ncnc54)C(O)C3O)C2O)C(n2cnc3c(N)ncnc32)O1 ; strain: IIIB ; cell line: SupT1 + Sup-T1 ; dose: 100 µM ; result: 81%
CCCCCCCCCCCCCCCC(=O)OCC(COC(=O)CCC(=O)OC1CC(COP(=O)(O)OC2CC(COP(=O)(O)OC3CC(CO)OC3n3cnc4c(N)ncnc43)OC2n2cnc3c(N)ncnc32)OC1n1cnc2c(N)ncnc21)OC(=O)CCCCCCCCCCCCCCC ; strain: IIIB ; cell line: SupT1 + Sup-T1 ; dose: 300 µM ; result: 96.7%
COC(=O)N1C=CC(C#N)C(C(C)=O)=C1 ; strain: IIIB ; cell line: MOLT-3 ; dose: 50 µM ; result: 0%
Nc1ncnc2c1ncn2COCCOP(=O)(O)O[C@@H]1C[C@@H](COP(=O)(O)O[C@@H]2C[C@@H](COP(=O)(O)O[C@@H]3C[C@@H](CO)O[C@H]3n3cnc4c(NCc5ccccc5)ncnc43)O[C@H]2n2cnc3c(N)ncnc32)O[C@H]1n1cnc2c(N)ncnc21 ; cell line: SupT1 + Sup-T1 ; dose: 0.01 µM ; result: 0%
NCC1OC(n2cnc3c(N)ncnc32)C(OP(=O)(O)OCC2OC(n3cnc4c(N)ncnc43)C(OP(=O)(O)OCCOCn3cnc4c(N)ncnc43)C2O)C1O ; strain: IIIB ; cell line: SupT1 + Sup-T1 ; dose: 100 µM ; result: 36.2%
CCCCCCCCCCCCCCCCOCC(COC(=O)CCC(=O)OCC1CC(OP(=O)(O)OCC2CC(OP(=O)(O)OCC3CC(O)C(n4cnc5c(N)ncnc54)O3)C(n3cnc4c(N)ncnc43)O2)C(n2cnc3c(N)ncnc32)O1)OCCCCCCCCCCCCCCCC ; strain: IIIB ; cell line: SupT1 + Sup-T1 ; dose: 300 µM ; result: 79.2%
Nc1ccc(S(=O)(=O)O)c2cccc(O)c12 ; cell line: MOLT-3 ; dose: 20 µg/mL ; result: 73%
Nc1ncnc2c1ncn2COCCOP(=O)(O)O ; cell line: SupT1 + Sup-T1 ; dose: 300 µM ; result: 87%
Nc1ncnc2c1ncn2[C@@H]1O[C@H](COP(=O)(O)O[C@@H]2[C@H](O)[C@@H](COP(=O)(O)O[C@@H]3[C@H](O)[C@@H](CO)O[C@H]3n3cnc4c(N)ncnc43)O[C@H]2n2cnc3c(N)ncnc32)[C@@H](O)[C@H]1O ; strain: IIIB ; cell line: PBL ; dose: 300 µM ; result: 3%
C[C@H](CCC(=O)O)[C@H]1CC[C@H]2[C@@H]3CC[C@@H]4C[C@H](O)CC[C@]4(C)[C@H]3C[C@H](O)[C@]12C ; strain: IIIB ; cell line: H9 ; dose: 10 µg/mL ; result: 84.8%
O=C(CCCCCCCCCCC(=O)Nc1cc(S(=O)(=O)O)cc2cc(S(=O)(=O)O)cc(O)c12)Nc1cc(S(=O)(=O)O)cc2cc(S(=O)(=O)O)cc(O)c12 ; cell line: MOLT-3 ; dose: 2.5 µg/mL ; result: 65%
CC(=O)C1=CC=CN(C(=O)c2ccccc2)C1C#N ; strain: IIIB ; cell line: MOLT-3 ; dose: 50 µM ; result: 0%
Cc1c(C)c2c(c(C)c1OC(=O)CCC(=O)OC1CC(COP(=O)(O)OC3CC(COP(=O)(O)OC4CC(CO)OC4n4cnc5c(N)ncnc54)OC3n3cnc4c(N)ncnc43)OC1n1cnc3c(N)ncnc31)CCC(C)(CCCC(C)CCCC(C)CCCC(C)C)O2 ; strain: IIIB ; cell line: SupT1 + Sup-T1 ; dose: 300 µM ; result: 95%
CCCCCCCCCCCCCCCC(=O)NC1C(COP(=O)(O)OC2CC(COP(=O)(O)OC3C(O)C(CO)OC3n3cnc4c(N)ncnc43)OC2n2cnc3c(N)ncnc32)OC(n2cnc3c(N)ncnc32)C1O ; dose: 100 µM ; result: 99%
CCOC(=O)N1c2ccc3ccccc3c2C=CC1C#N ; strain: IIIB ; cell line: MOLT-3 ; dose: 50 µM ; result: 73.7%